Construct, isoform or probe ends are uncertain for at least one entry. At least one verdict was read from the data and is not stated in words by the source. Protein sequences can lack the tags named with them.

This series has as its target T1, QuiR (UniProt Q8Y9N7).
T1 sequence (looked up, limits assumed): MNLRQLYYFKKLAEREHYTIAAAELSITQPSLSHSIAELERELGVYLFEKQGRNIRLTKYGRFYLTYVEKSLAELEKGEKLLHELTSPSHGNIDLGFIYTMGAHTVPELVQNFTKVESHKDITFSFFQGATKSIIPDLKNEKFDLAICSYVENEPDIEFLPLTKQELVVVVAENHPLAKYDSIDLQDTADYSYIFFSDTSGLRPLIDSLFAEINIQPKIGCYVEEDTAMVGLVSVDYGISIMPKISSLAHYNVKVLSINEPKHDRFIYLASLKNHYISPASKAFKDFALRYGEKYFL
The series can be described thus: EMSA. The note with it: QuiR alone, no effector; probe letters rebuilt from the primers and the genome. For orientation: Mobility shift assays separate free from complexed probe on a gel.

As for “CGCAAGTTCATCGGTTAACCTCCTCGGAATGCCTTGATAACTCTATTGTAAGCGATTGTATAGAAAAAATCTATGGATAAATCGAAAAATATACATTAGATTAATAATTATTCCTGACTTATAATGAAAGAGAAATAAGATTGTGCATTATTGAACGTGAATAATGTAACAAATCATTTGCTGAGATTATAGTCGCAGGAGGCTTATTATGACAGATTATCCGAG (double strand) [qui1 intergenic region probe (225 nt)]”, the binding result was “binds”.

The record behind these values is doi:10.1101/2025.04.08.647683.
